Measured values from several laboratories, pooled; numbers as filed in NIAID ChemDB.

Shared fields: whole-cell or culture tests; organism: Mycobacterium tuberculosis

Blank or dashed fields: not listed here. ECn is the concentration giving n% inhibition of infection, replication or growth. Percent inhibition refers to the dose given; in toxicity tests it is the harm to the cells. Neighbouring rows are from separate reports. MIC50, MIC90 and the like: level of inhibition, or share of isolates inhibited.

compound | dose | strain or isolate | cell line | endpoint | read by | result
CCn1cc(C(=O)O)c(=O)c2cc(F)c(N3CCN(Cn4c(O)c(N=NC(N)=O)c5cc(Br)ccc54)CC3)cc21 | 12.5 µg/mL | H37Rv |  | inhibition | BACTEC | 93%
O=C1c2cc(Br)ccc2-n2c1nc1ncccc1c2=O |  | H37Rv |  | MIC |  | 0.03 µg/mL
CCOC(=O)Cc1csc(NC(=O)CSC(=S)N2CCCCC2C)n1 |  | H37Rv |  | MIC |  | >156 µg/mL
NNC(=O)c1ccncc1 |  | H37Rv |  | MIC |  | <0.02 µg/mL
O=C(NCc1cccc(C(F)(F)F)c1)c1nnc(-c2ccccn2)[nH]c1=O |  | H37Rv |  | MIC |  | 32 µg/mL
CO/N=C1/CCN(c2nc(=O)c3cc(C(F)(F)F)cc([N+](=O)[O-])c3s2)CC1N |  | H37Rv |  | MIC90 | resazurin | 0.436 µg/mL
CCn1cc(C(=O)O)c(=O)c2cc(F)c(N3CCN(Cn4c(O)c(N=NC(=O)c5ccncc5)c5cc(Cl)ccc54)CC3)cc21 | 12.5 µg/mL | H37Rv |  | inhibition | BACTEC | 99%
Cc1sc(=Nc2ccc(OCCC(C)C)cc2)n(-c2ccc(OCCC(C)C)cc2)c1C |  | H37Rv |  | MIC |  | 12 µg/mL
Cc1cc2c(c(O)c1-c1c(C)cc(O)c3c1C(=O)C=CC3=O)C(=O)C=CC2=O |  |  |  | MIC |  | >200 µg/mL
CCOC(=O)Cc1csc(NC(=O)CSC(=S)N(C)C)n1 |  | H37Rv |  | MIC |  | >156 µg/mL
CCn1cc(C(=O)O)c(=O)c2cc(F)c(N3CCN(Cn4c(O)c(N=NC(=O)c5ccncc5)c5ccccc54)CC3)cc21 |  | H37Rv |  | EC50 | BACTEC | <12.5 µg/mL
CCOC(=O)Cc1csc(NC(=O)C(SC(=S)N2CCC(C)CC2)c2ccccc2)n1 |  | H37Rv |  | MIC |  | >156 µg/mL
CN(CC1CCCCC1)C1CCN(c2nc(=O)c3cc(C(F)(F)F)cc([N+](=O)[O-])c3s2)C1 |  | 16892 clinical isolate |  | MIC90 | resazurin | 0.016 µg/mL
NC(=O)c1cnccn1 |  | Isolate 9132 monodrug-resistant |  | MIC |  | >300 µg/mL
NC1[C@H]2CN(c3nc4c(cc3F)c(=O)c(C(=O)O)cn4-c3ccc(F)cc3F)C[C@@H]12 |  | H37Rv |  | MIC |  | 16 µg/mL
CCn1cc(C(=O)O)c(=O)c2cc(F)c(N3CCN(Cn4c(O)c(N=NC(N)=S)c5ccccc54)CC3)cc21 | 12.5 µg/mL | H37Rv |  | inhibition | BACTEC | 98%
CCn1cc(C(=O)O)c(=O)c2cc(F)c(N3CCN(CC(=O)c4ccccc4)CC3)cc21 |  | H37Rv | VERO | MIC |  | 6.25 µg/mL
CCn1cc(C(=O)O)c(=O)c2cc(F)c(N3CCNCC3)cc21 |  | H37Rv |  | MIC |  | 4 µg/mL
CCn1cc(C(=O)O)c(=O)c2cc(F)c(N3CCN(C/C(=N/O)c4ccc(F)cc4)CC3)nc21 | 6.25 µg/mL | H37Rv |  | inhibition |  | 0%
O=C(NCc1ccccc1)c1nnc(-c2ccccn2)[nH]c1=O |  | H37Rv |  | MIC |  | >32 µg/mL
CCc1nc(NCCCc2ccccc2)c2cc(C)sc2n1 |  | Erdman |  | EC50 | resazurin | 0.083 µM
CCN(CC)CCOc1ccc(-n2c(C)csc2=Nc2ccc(OCC(C)C)cc2)cc1 |  | H37Rv |  | MIC |  | 24 µg/mL
NC(=S)c1ccc(N)cc1 |  |  |  | MIC |  | 425 µM
Cc1ccc2occ(C=O)c(=O)c2c1 |  | My 331/88 |  | MIC |  | 1000 µM
CCOC(=O)Cc1csc(NC(=O)CSC(=S)N2CCC(C)CC2)n1 |  | H37Rv |  | MIC |  | >156 µg/mL
CN(C)c1ccc(C(N)=S)cc1 |  |  |  | MIC |  | 350 µM
CC(C)CCOc1ccc(N=C2SC(C)C(=O)N2c2ccc(OCCC(C)C)cc2)cc1 |  | H37Rv |  | MIC |  | 32 µg/mL
CCOC(=O)Cc1csc(NC(=O)C(SC(=S)NNC(=O)c2ccncc2)c2ccccc2)n1 |  | H37Rv |  | MIC |  | >156 µg/mL
O=C1c2cc(C3OC=CO3)ccc2-n2c1nc1ccncc1c2=O |  | H37Rv |  | MIC |  | 0.13 µg/mL
CCOC(=O)Cc1csc(NC(=O)CSC(=S)N2CCCCC2)n1 |  | H37Rv |  | MIC |  | >156 µg/mL
CCn1cc(C(=O)O)c(=O)c2cc(F)c(N3CCN(Cn4c(O)c(N=NC(N)=S)c5cc(Br)ccc54)CC3)cc21 | 12.5 µg/mL | H37Rv |  | inhibition | BACTEC | 93%
CCOC(=O)Cc1csc(NC(=O)CSC(=S)NNC(=O)c2ccncc2)n1 |  | H37Rv |  | MIC |  | >156 µg/mL
O=Cc1coc2ccccc2c1=O |  | My 331/88 |  | MIC |  | 1000 µM
CCCCCCC(C)c1ccc2c(c1)C(=O)c1nc3ccncc3c(=O)n1-2 |  | H37Rv |  | MIC |  | 0.015 µg/mL
NC(=S)c1ccc(Nc2ccccc2)cc1 |  |  |  | MIC |  | 150 µM
O=c1nc(N2CCC(=NOCc3ccccc3)CC2)sc2c([N+](=O)[O-])cc(C(F)(F)F)cc12 |  | 16802 clinical isolate |  | MIC90 | resazurin | 0.016 µg/mL
O=C(O)c1cn(C2CC2)c2cc(N3CCN(C/C(=N/O)c4ccc(F)cc4)CC3)c(F)cc2c1=O | 6.25 µg/mL | H37Rv | VERO | inhibition |  | 98%
Cc1ccc2c3c1C(CN)OB3OCCO2 |  | H37Rv |  | MIC | broth dilution / resazurin | 0.3 µM
CON=C1CCN(c2nc(=O)c3cc(C(F)(F)F)cc([N+](=O)[O-])c3s2)CC1 |  | H37Rv |  | MIC90 | resazurin | 0.029 µg/mL
CCc1nc(NCCCC(F)(F)F)c2cc(C)sc2n1 |  | Erdman |  | EC50 | resazurin | 0.11 µM
O=C1c2cc(I)ccc2-n2c1nc1ncccc1c2=O |  | TN1618RFLF:P (MDR) |  | MIC |  | 0.03 µg/mL
CCc1nc(NCCOC)c2cc(C)sc2n1 |  | Erdman |  | EC50 | resazurin | 17 µM
CCOC(=O)Nc1cc(NC(C)=O)c2nc(C3CCCCC3)[nH]c2c1 |  | H37Rv |  | MIC99 | resazurin | 1.6 µM
CCn1cc(C(=O)O)c(=O)c2cc3c(cc21)OCO3 |  | H37Rv |  | MIC |  | 32 µg/mL
CCOC(=O)Cc1csc(NC(=O)C(SC(=S)N2CCN(C)CC2)c2ccccc2)n1 |  | H37Rv |  | MIC |  | >156 µg/mL
CCCCOc1ccc(N=c2scc(C)n2-c2ccc(ON(C)C)cc2)cc1 |  | H37Rv |  | MIC |  | >32 µg/mL
CCn1cc(C(=O)O)c(=O)c2cc(F)c(N3CCN(C/C(=N/O)c4ccc(OC)cc4)CC3)cc21 | 6.25 µg/mL | H37Rv |  | inhibition |  | 27%
CC1(C)CCCC2(C)C(C(=O)O)C3CCC45OC3(CC12)OC(=O)C4C1(C)CCCC(C)(C)C1CC5=O | 12.8 µg/mL | H37Rv |  | inhibition | BACTEC | 20%
CCCCCNc1ccc(C(N)=S)cc1 |  |  |  | MIC |  | 150 µM
CCn1cc(C(=O)O)c(=O)c2cc(F)c(N3CCNCC3)nc21 |  | H37Rv |  | MIC |  | 8 µg/mL
O=C(O)c1cn(C2CC2)c2cc(N3CCN(C/C(=N/O)c4ccccc4)CC3)c(F)cc2c1=O | 6.25 µg/mL | H37Rv | VERO | inhibition |  | 100%
CCc1nc(NC(C(=O)O)C(C)C)c2cc(C)sc2n1 |  | Erdman |  | EC50 | resazurin | 2.7 µM
O=C1C[C@H](O)C2(Oc3cccc4cccc(c34)O2)c2cccc(O)c21 |  |  |  | MIC |  | 6.25 µg/mL
C=CCOc1ccc(N=c2scc(C)n2-c2ccc(OCC=C)cc2)cc1 |  | H37Rv |  | MIC |  | 4 µg/mL
O=C1c2cc(Cl)ccc2-n2c1nc1cc(N3CCOCC3)ccc1c2=O |  | H37Rv |  | MIC |  | 0.5 µg/mL
COc1ccc(C(=O)CN2CCN(c3cc4c(cc3F)c(=O)c(C(=O)O)cn4C3CC3)CC2)cc1 | 6.25 µg/mL | H37Rv |  | inhibition |  | 15%
CCCc1ccc(N=c2scc(CCN3CCCCC3)n2-c2ccc(CCC)cc2)cc1 |  | H37Rv |  | MIC |  | 12 µg/mL
Cc1ccccc1CNC(=O)c1nnc(-c2ccccn2)[nH]c1=O |  | H37Rv |  | MIC |  | 8 µg/mL
O=C1c2ccccc2-n2c1nc1ccc(F)cc1c2=O |  | H37Rv |  | MIC |  | 0.5 µg/mL
CCCCc1ccc(N=c2scc(C)n2-c2ccc(CCCC)cc2)cc1 |  | H37Rv |  | MIC |  | >32 µg/mL

The last 5 rows once more:

| compound | dose | strain or isolate | cell line | endpoint | read by | result |
|---|---|---|---|---|---|---|
| COc1ccc(C(=O)CN2CCN(c3cc4c(cc3F)c(=O)c(C(=O)O)cn4C3CC3)CC2)cc1 | 6.25 µg/mL | H37Rv |  | inhibition |  | 15% |
| CCCc1ccc(N=c2scc(CCN3CCCCC3)n2-c2ccc(CCC)cc2)cc1 |  | H37Rv |  | MIC |  | 12 µg/mL |
| Cc1ccccc1CNC(=O)c1nnc(-c2ccccn2)[nH]c1=O |  | H37Rv |  | MIC |  | 8 µg/mL |
| O=C1c2ccccc2-n2c1nc1ccc(F)cc1c2=O |  | H37Rv |  | MIC |  | 0.5 µg/mL |
| CCCCc1ccc(N=c2scc(C)n2-c2ccc(CCCC)cc2)cc1 |  | H37Rv |  | MIC |  | >32 µg/mL |